In publication PMC10046907 (Current Issues in Molecular Biology, 2023):
pIC50: −log10 of the molar value.

Target: neuraminidase from A/Chicken/Korea/MS96/96 (H9N2) (Influenza A virus (A/Chicken/Korea/MS96/96(H9N2)), UniProt Q9J458)
Assay: Chemiluminescent neuraminidase inhibition (NAI) assay, H9N2
Assay type: biochemical, influenza A viruses
Conditions: read-out: Neuraminiase IC50

Question: `CCOC(=O)C1=C[C@@H](OC(CC)CC)[C@H](NC(C)=O)[C@@H](N)C1` [Olseltamivir, oseltamivir, reference compound] was tested. Which pIC50 did it give?
Answer: 8.30
